Molecules are shown by their SMILES. The entries are a selection whose mix differs from that of the whole data set. Activity calls are given as the source filed them. Rule as the data show it: active = activity change below about -50%; inconclusive = between about -30% and that limit; inactive = weaker than that.
% is scaled to controls: 0 for no effect and ±100 for the full control effect.

By UniProt entry, the sequences of proteins in these tests, tags left out.
UniProt Q9GZU1, whole entry: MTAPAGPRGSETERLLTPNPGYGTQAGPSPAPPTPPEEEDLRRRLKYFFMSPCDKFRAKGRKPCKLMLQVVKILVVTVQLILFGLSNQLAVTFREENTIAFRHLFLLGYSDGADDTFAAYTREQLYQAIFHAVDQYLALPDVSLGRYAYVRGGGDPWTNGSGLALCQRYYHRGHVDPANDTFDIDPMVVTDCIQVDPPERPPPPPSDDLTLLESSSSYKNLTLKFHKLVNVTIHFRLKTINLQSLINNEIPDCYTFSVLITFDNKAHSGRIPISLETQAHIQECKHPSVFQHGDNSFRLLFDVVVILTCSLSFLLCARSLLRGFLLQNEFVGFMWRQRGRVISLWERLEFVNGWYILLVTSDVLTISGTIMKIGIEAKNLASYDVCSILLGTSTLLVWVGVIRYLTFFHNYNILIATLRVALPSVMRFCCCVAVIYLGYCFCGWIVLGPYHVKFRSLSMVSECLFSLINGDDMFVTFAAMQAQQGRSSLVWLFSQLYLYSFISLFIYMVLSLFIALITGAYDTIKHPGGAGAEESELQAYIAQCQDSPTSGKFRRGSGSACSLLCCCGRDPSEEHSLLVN

The test concerns the target Mucolipin-1 (Homo sapiens) (UniProt Q9GZU1). Kind of test: qHTS for Inhibitors of the Human Mucolipin Transient Receptor Potential 1 (TRPML1). The conditions noted are these: TRPML1-inducible cells, Ca2+ dye fluorescence, FDSS; hits give low values; inhibition of EC80 agonist-evoked calcium signal. In outline:
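TRPML1-DL cells, Tet-induced overnight (~16 h, 37 °C) at 1,500 cells/well, were loaded with Ca8 no-wash dye plus quencher for 45-90 min at room temperature. Compounds were pinned during FDSS kinetic reading; agonist 54-4 at EC80 (4 uM final) then added.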
(qHTS replaces the single test concentration by a dilution series.)
Take `Cc1nc2ccc3ccccc3c2s1.O=[N+]([O-])c1cc([N+](=O)[O-])c(O)c([N+](=O)[O-])c1`: the activity change, negative = inhibition was inactive: -3.75%. As for `O=[N+]([O-])c1cc([N+](=O)[O-])c(-c2cnn(-c3ccccc3)c2)c([N+](=O)[O-])c1`, the figure is inactive: -4.11%; as for `COc1ccccc1CNC(=O)COC(=O)C(O)(c1ccccc1)c1ccccc1`, inactive: 7.75%; as for `O=[As](O)(c1cccc(O)c1)c1cccc(O)c1`, inactive: -9.58%. The same measure for `Cc1cccc(OCC(=O)OC2CN3CCC2CC3)c1` (stereo not given): inactive: 12%. The same measure for `Cc1cc(C)cc(OP(C)(=O)Nc2ccc(C)cc2C)c1` (stereo not given): inactive: 34.3%; for `CCOC(=O)c1ccc(NP(C)(=O)Oc2cc(C)cc(C)c2)cc1` (stereo not given): inactive: -6.33%; for `O=C(OC1CN2CCC1CC2)c1ccc(Cl)cc1` (stereo not given): inactive: -9.96%. On to `COc1cc(C(=O)NCC2(N3CCOCC3)CCCCC2)cc(Cl)c1OC(C)C`, for which the activity change, negative = inhibition was inactive: -2.65%. As for `CS(=O)(=O)c1ccc(Cl)c(NC(=O)COC(=O)C(O)(c2ccccc2)c2ccccc2)c1`, the figure is inactive: 11.1%; as for `CCOP(=O)(Nc1cccc2ccccc12)OCC`, inactive: 16.9%; as for `CP(=O)(Nc1cccc(Br)c1)Oc1ccccc1` (stereo not given), inactive: -3.41%. The same measure for `Cc1cc(C)cc(OP(C)(=O)Nc2ccccn2)c1` (stereo not given): inactive: -10.8%. For the compound `Cc1ccc(NCCc2c([N+](=O)[O-])cc([N+](=O)[O-])cc2[N+](=O)[O-])cc1`, the activity change, negative = inhibition is inactive: -6.25%.

`Nc1cccc2c([As](=O)(O)O)cccc12`: the activity change, negative = inhibition was inactive: -1.5%. The same measure for `CCCOP(=S)(Nc1nc(N)cc(=O)[nH]1)OCCC`: inactive: -2.81%; for `Cc1ccc(C)c(NP(C)(=O)Oc2ccccc2)c1` (stereo not given): inactive: 11.2%; for `Nc1ccccc1[As](=O)(O)c1ccccc1`: inactive: 7.25%.

On to `CCOP1(=S)c2c(C)nn(CCC#N)c2N=C(c2ccccc2F)N1C` (stereo not given), for which the activity change, negative = inhibition is inactive: -7.75%. `O=P(Nc1nccs1)(c1ccccc1)c1nc2ccccc2s1` (stereo not given): the activity change, negative = inhibition was inactive: 0.99%. The same measure for `O=P(Nc1nccs1)(Oc1ccccc1)Oc1ccccc1`: inactive: 12.6%. Regarding `CS(=O)(=O)c1cc([N+](=O)[O-])c2no[n+]([O-])c2c1`, the activity change, negative = inhibition was inactive: -3.99%. The same measure for `N#CCCN(C(=O)COC(=O)C(O)(c1ccccc1)c1ccccc1)c1ccc(F)cc1`: inactive: 31.8%; for `CN(C(=O)Cc1ccccc1)[C@@H]1CC[C@]2(CCCO2)C[C@H]1N1CCCC1`: inactive: 2.16%. The same measure for `CCOP1(=S)c2c(C)nn(CCC#N)c2N=C(c2ccc(F)cc2)N1C` (stereo not given): inactive: 19.3%; for `CN(C)C(=O)c1cc([N+](=O)[O-])cc2c1-c1c(cc([N+](=O)[O-])cc1[N+](=O)[O-])C2=O`: inactive: 8.48%; for `O=[N+]([O-])c1ccc2c(c1)nnn2O`: inactive: -8.14%. The same measure for `CN(C(=O)Cc1ccc(Cl)c(Cl)c1)[C@H]1CC[C@@]2(CCCO2)C[C@@H]1N1CCCC1`: inactive: 15.5%; for `CC1=NCCc2c1[nH]c1ccccc21.O=[N+]([O-])c1cc([N+](=O)[O-])c(O)c([N+](=O)[O-])c1`: inactive: -1.39%; for `NC(=O)Nc1ccc([As](=O)(O)O)cc1`: inactive: -5.82%.

(Values after PubChem BioAssay AID624415 (National Center for Advancing Translational Sciences (NCATS), 2012).)
